Assay results taken from PubChem BioAssay AID1063 (University of Pittsburgh Molecular Library Screening Center, 2008).
The list shows a part of the results, in another mix than the full data. Calls of active or inactive are those of the source. Rule as the data show it: active = inhibition above about 50%; inactive = the rest.

test: antileishmanial activity against promastigotes – primary screen (AID 1063); conditions: Leishmania major promastigotes, resazurin fluorescence viability; at 10 µM; stronger effect = higher value;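 also: promastigotes grown with compound for 44 hours at 28 °C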

Compound	inhibition
CN1CCC(Nc2cccc(F)c2)CC1	inactive: 3.92%
CN(C)c1cccc(C(=O)NCC2(N3CCCCC3)CCCCC2)c1	inactive: 10.1%
COc1ccc(CN(CCCl)CCCl)cc1Cl	inactive: 5.63%
CC(C)c1ccc(NC2CCN(C(=O)OC(C)(C)C)CC2)cc1	inactive: -4.14%
CN1CCN(CCOC(=O)C(O)(c2ccccc2)c2ccccc2)CC1	inactive: 38.9%
COc1ccc(NC2CCN(C(=O)OC(C)(C)C)CC2)cc1	inactive: 4.05%
O=C(NCC1(N2CCOCC2)CCCCC1)c1cc(=O)[nH]c2ccccc12	inactive: 0.88%
O=C(NCC1(N2CCCCC2)CCCCC1)c1cccc([N+](=O)[O-])c1	inactive: 1.07%
N#CC1(Nc2ccccc2)CCN(CCc2ccccc2)CC1	inactive: -1.39%
COc1ccc(NC2CCN(CCc3ccccc3)CC2)c(OC)c1	active: 91.7%
O=C(NCC1(N2CCOCC2)CCCCC1)c1cc2ccccc2o1	inactive: 12.4%
CCOC(=O)N1CCC(Nc2ccc(OC)cc2)CC1	inactive: 12.9%
O=C(OC1CN2CCC1CC2)C1c2ccccc2Oc2ccccc21 (stereo not given)	active: 100%
COc1ccc(C(=O)NCC2(N3CCCCC3)CCCCC2)c(OC)c1OC	inactive: -5%
CCC(CO)(C(=O)OC1CN2CCC1CC2)c1ccccc1 (stereo not given)	active: 91.7%
COc1cc(OC)cc(C(=O)NCC2(N3CCOCC3)CCCCC2)c1	inactive: 5.37%
CCOc1ncccc1C(=O)NCC1(N2CCOCC2)CCCCC1	inactive: 5.83%
CC(C)(C)OC(=O)N1CCC(Nc2ccccc2)CC1	inactive: -14.3%
CCN1CCC(Nc2cccc(F)c2)CC1	inactive: -2.06%
CN(C)c1ccc(C(=O)NCC2(N3CCCCC3)CCCCC2)cc1	inactive: 5.06%
c1ccc(CN2CCC(Nc3ccccc3)CC2)cc1	active: 86.2%
N#Cc1ccc(C(=O)NCC2(N3CCCCC3)CCCCC2)cc1	inactive: -0.46%
N/C(=N\O)c1c(N)no[n+]1[O-]	inactive: -1.16%
O=C(OC1CN2CCC1CC2)C1c2ccccc2C=Cc2ccccc21 (stereo not given)	active: 77.9%
COc1ccc(C(=O)NCC2(N3CCOCC3)CCCCC2)cc1OC	inactive: 2.33%
